Construct, isoform or probe ends are uncertain for at least one entry.
Test system: rHis-ItrA (SPN3597, DeoR family regulator) (Salmonella enterica serovar Pullorum C79-13)
Experiment: EMSA
Conditions: 2 uM rHis-ItrA; EMSA: 10 mM Tris-HCl pH 8.0, 50 mM KCl, 1 mM DTT, 0.5 mM EDTA, 5% glycerol, 10 ug/ml BSA, 200 ng/ul poly(dI:dC), 25 ng DNA, 37 C 30 min; 6% native PAGE on ice; recombinant protein; residues 1-255; protein details: His (pColdI); label: FAM; probe letters rebuilt from the primers and the genome

## AACACCTCATACGTGGTTTAACATAATCCCTTATTGTACGCACCGCTAAAACGCGTTCATCGCGATCACGGCAGCAGACAGGTAAAAATGGCAACAAACCATCGTCGACCTGCAGGCA (double strand) [P-90~+10]
  binding result: binds

Source: article PMC9728880
